{"source": "PubChem BioAssay AID624099 (ICCB-Longwood, 2012)", "assay": "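Knock-downs relieving repression by E2 of an HPV18 LCR luciferase reporter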 (primary screen)", "cell system": "human C33A cervical carcinoma cells (HPV-negative) stably expressing BPV1 E2 and an HPV18 LCR luciferase reporter", "reagents": "siRNA pool against human genes, 40 nM", "timing": "72 h", "measured": "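Per-well luciferase luminescence, z-scored on each plate against the plate mean and SD with control wells left out, then averaged across three replicate plates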", "reading the numbers": "mean z-score and z-score: higher = stronger reporter signal, weaker E2 silencing", "active means": "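Hit if mean z-score reaches 2 and two or more of three replicate z-scores also reach 2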", "note": "In all, the deposit lists about 21,000 reagents; this is a part drawn at random. 497 of them (2.4%) were called active. 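Higher z means weaker E2 silencing; only reporter increases were scored, and knock-downs that hurt cell survival may mask genuine repressor factors.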"}
{"target": "PYROXD2", "mean z-score": 1.01, "z-score, replicate A": 1.45, "z-score, replicate B": 0.89, "z-score, replicate C": 0.7, "activity call": "inactive"}
{"target": "FGF19", "mean z-score": -0.67, "z-score, replicate A": -0.89, "z-score, replicate B": -0.53, "z-score, replicate C": -0.59, "activity call": "inactive"}
{"target": "DISP1", "mean z-score": 0.69, "z-score, replicate A": 0.61, "z-score, replicate B": 0.64, "z-score, replicate C": 0.83, "activity call": "inactive"}
{"target": "FLJ44477 (retired record)", "mean z-score": 0.03, "z-score, replicate A": -0.12, "z-score, replicate B": 0.18, "z-score, replicate C": 0.03, "activity call": "inactive"}
{"target": "NAAA", "mean z-score": -0.08, "z-score, replicate A": 0.53, "z-score, replicate B": -0.07, "z-score, replicate C": -0.71, "activity call": "inactive"}
{"target": "SPATA46", "mean z-score": 1.31, "z-score, replicate A": 1.25, "z-score, replicate B": 1.34, "z-score, replicate C": 1.34, "activity call": "inactive"}
{"target": "ADGRA2", "mean z-score": 0.97, "z-score, replicate A": 1.1, "z-score, replicate B": 1.03, "z-score, replicate C": 0.77, "activity call": "inactive"}
{"target": "HDAC4", "mean z-score": 1.61, "z-score, replicate A": 1.77, "z-score, replicate B": 1.6, "z-score, replicate C": 1.47, "activity call": "inactive"}
{"target": "GPT2", "mean z-score": 1.31, "z-score, replicate A": 1.33, "z-score, replicate B": 1.35, "z-score, replicate C": 1.26, "activity call": "inactive"}
{"target": "DNAAF6", "mean z-score": 0.08, "z-score, replicate A": 0.01, "z-score, replicate B": 0.06, "z-score, replicate C": 0.18, "activity call": "inactive"}
{"target": "PRKD3", "mean z-score": -2.33, "z-score, replicate A": -2.89, "z-score, replicate B": -1.79, "z-score, replicate C": -2.29, "activity call": "inactive"}
{"target": "CDON", "mean z-score": -0.95, "z-score, replicate A": -1.09, "z-score, replicate B": -0.92, "z-score, replicate C": -0.85, "activity call": "inactive"}

2 neighbouring reagents from above, quoted:
{"target": "SPATA46", "mean z-score": 1.31, "z-score, replicate A": 1.25, "z-score, replicate B": 1.34, "z-score, replicate C": 1.34, "activity call": "inactive"}
{"target": "ADGRA2", "mean z-score": 0.97, "z-score, replicate A": 1.1, "z-score, replicate B": 1.03, "z-score, replicate C": 0.77, "activity call": "inactive"}
